The results in this text go back to US7163702B1 (priority 2004, dated 2007).

For the test, the system named is anthrax. The test is described as follows: Resistance to anthrax infection in laboratory animals (Example 16). To be noted: 3 micrograms per kilogram i.p., from 10 days prior and for two months.

Consider “3-O-metyl-β-D-glucopyranosyl-(1→3)-β-D-xylopyranosyl-(1→4)-[β-D-xylopyranosyl-(1→2)]-β-D-quinovopyranosyl-(1→2)-4-O-sodium sulfate-β-D-xylopyranosyl-3-O-holost-7(8)-en-3β-ol-16β-O-acetate”, for which the “more animals alive at experiment end vs untreated group” value came out at 60%.
